Experiment: Tea-stained cotton fabric bleaching (CIE whiteness)
Settings: 45 minutes, H2O2 5 g/l

## OO [H2O2, Hydrogen peroxide]
pH 5, 20° C., activator 3 g/l, starting fabric −30.8 (Example 12)
  CIE whiteness values: 0.6
pH 5, 20° C., activator 3 g/l, starting fabric −34.4 (Example 4)
  CIE Whiteness: 24.5
pH 5, 20° C., activator 3 g/l, starting fabric −52.4 (Example 10)
  CIE Whiteness: −27.3
pH 5, 50° C., activator 3 g/l, starting fabric −30.8 (Example 12)
  CIE whiteness values: 23.1
pH 5, 50° C., activator 3 g/l, starting fabric −34.4 (Example 4)
  CIE Whiteness: 35.5
pH 5, 50° C., activator 3 g/l, starting fabric −52.4 (Example 10)
  CIE Whiteness: −2.3
pH 5, 95° C., activator 3 g/l, starting fabric −30.8 (Example 12)
  CIE whiteness values: 60.8
pH 5, 95° C., activator 3 g/l, starting fabric −34.4 (Example 4)
  CIE Whiteness: 62.2
pH 5, 95° C., activator 3 g/l, starting fabric −52.4 (Example 10)
  CIE Whiteness: 33.9
pH 7, 20° C., activator 3 g/l, starting fabric −30.8 (Example 12)
  CIE whiteness values: 13.6
pH 7, 20° C., activator 3 g/l, starting fabric −34.4 (Example 4)
  CIE Whiteness: 39.1
pH 7, 20° C., activator 3 g/l, starting fabric −52.4 (Example 10)
  CIE Whiteness: −0.3
pH 7, 50° C., activator 3 g/l, starting fabric −30.8 (Example 12)
  CIE whiteness values: 36.6
pH 7, 50° C., activator 3 g/l, starting fabric −34.4 (Example 4)
  CIE Whiteness: 43.1
pH 7, 50° C., activator 3 g/l, starting fabric −52.4 (Example 10)
  CIE Whiteness: 5.3
pH 7, 50°C., activator 0.1 g/l (Example 14)
  CIE whiteness values: 38.7
pH 7, 95° C., activator 3 g/l, starting fabric −30.8 (Example 12)
  CIE whiteness values: 81.0
pH 7, 95° C., activator 3 g/l, starting fabric −34.4 (Example 4)
  CIE Whiteness: 75.9
pH 7, 95° C., activator 3 g/l, starting fabric −52.4 (Example 10)
  CIE Whiteness: 67.5
pH 10, 20° C., activator 3 g/l, starting fabric −30.8 (Example 12)
  CIE whiteness values: 33.3
pH 10, 20° C., activator 3 g/l, starting fabric −34.4 (Example 4)
  CIE Whiteness: 61.8
pH 10, 20° C., activator 3 g/l, starting fabric −52.4 (Example 10)
  CIE Whiteness: 23.1
pH 10, 50° C., activator 3 g/l, starting fabric −30.8 (Example 12)
  CIE whiteness values: 62.9
pH 10, 50° C., activator 3 g/l, starting fabric −34.4 (Example 4)
  CIE Whiteness: 60.7
pH 10, 50° C., activator 3 g/l, starting fabric −52.4 (Example 10)
  CIE Whiteness: 54.4
pH 10, 50°C., activator 0.1 g/l (Example 14)
  CIE whiteness values: 62.9
pH 10, 95° C., activator 3 g/l, starting fabric −30.8 (Example 12)
  CIE whiteness values: 78.2
pH 10, 95° C., activator 3 g/l, starting fabric −34.4 (Example 4)
  CIE Whiteness: 77.8
pH 10, 95° C., activator 3 g/l, starting fabric −52.4 (Example 10)
  CIE Whiteness: 70.6
pH = 5, 50° C., activator 3 g/l (Example 15)
  CIE Whiteness: 35.6
pH = 7, 50° C., activator 3 g/l (Example 15)
  CIE Whiteness: 43.6
pH = 7, 95° C., activator 3 g/l (Example 15)
  CIE Whiteness: 69.6
pH = 10, 50° C., activator 3 g/l (Example 15)
  CIE Whiteness: 60.3
pH = 10, 95° C., activator 3 g/l (Example 15)
  CIE Whiteness: 79.5

Reference: patent publication US20040055092A1, “Use of percarbamic acids and diacyl percarbamates and precursors therefor” (priority 2000, published 2004)
